Experimental data as given in article PMC10128069, “A Fijivirus Major Viroplasm Protein Shows RNA-Stimulated ATPase Activity by Adopting Pentameric and Hexameric Assemblies of Dimers” (mBio, 2023).

Target: P9-1 (Mal de Rio Cuarto virus (MRCV)) (UniProt D9U542)
Assay: EMSA
Settings: 6.5 uM protein, 250 uM RNA, no extra-retarded pattern as seen with long RNA; 10 mM Tris-HCl, 50 mM KCl, 0.5 mM EDTA, 10% glycerol, 1 mM DTT, pH 7.5; 30 min at room temperature; 6.5% native PAGE at 4 C; recombinant protein; residues 1-337; protein details: N-terminal 52-residue tag (6xHis/Xpress/EK); label: 5'-Cy5

CAUCAUGCAGGACAGUCGGAUCGCAGUCAG [30-nt Cy5-ssRNA]
binding result: binds

Construct, isoform or probe ends are uncertain for at least one entry. At least one verdict rests on a figure or table, not on a statement of the authors.
